Results of unrelated studies side by side (data: NIAID ChemDB).

Shared fields: tests in culture; agent: Mycobacterium tuberculosis

MIC50, MIC90 and the like: level of inhibition, or share of isolates inhibited.

{"smiles": "O=C1C[C@@H](c2ccc(O)c(O)c2)Oc2c1c(O)cc(O)c2[C@H]1C(=O)c2c(O)cc(O)cc2O[C@@H]1c1ccc(O)cc1", "strain or isolate": "H37Rv", "read-out": "EC50", "result": ">12.5 µg/mL"}
{"smiles": "C[C@H](NCCNC1CCCCCCC1)C1CCCCC1", "read-out": "MIC", "result": "50 µM"}
{"smiles": "COc1ccc(/C=C2\\Oc3c(Br)c(OC)cc(OC)c3C2=O)cc1", "strain or isolate": "H37Rv", "method": "BACTEC", "read-out": "MIC bound", "result": ">12.5 µg/mL"}
{"smiles": "O=C1c2ccccc2-c2ccc(Cl)c3cccc1c23", "strain or isolate": "H37Rv", "read-out": "MIC", "result": ">100 µg/mL"}
{"smiles": "C[C@H]1C[C@H](N)CN1c1cc2c(cc1F)c(=O)c(C(=O)O)cn2-c1ccc(F)cc1F", "strain or isolate": "Drug-resistant", "read-out": "MBC90", "result": "8 µg/mL"}
{"smiles": "O=C(O)c1ccc(Cl)s1", "strain or isolate": "H37Rv", "read-out": "MIC", "result": "100 µg/mL"}
{"smiles": "CN(C)C1=C(Cl)C(=O)c2[nH]cnc2C1=O", "strain or isolate": "H37Rv", "method": "BACTEC", "read-out": "inhibition", "dose": "12.5 µg/mL", "result": "0%"}
{"smiles": "CC(NCCNCCc1ccccc1)C12CC3CC(CC(C3)C1)C2", "read-out": "MIC", "result": "50 µM"}
{"smiles": "Cc1cc(O)c2c(c1)C(=O)C13C(=C2O)C(=O)C2C(O)C1C1C(O)C3C(=O)C3=C(O)c4c(O)cc(C)cc4C(=O)C321", "strain or isolate": "H37Rv", "method": "BACTEC", "read-out": "MIC", "result": "≥12.5 µg/mL"}
{"smiles": "c1ccc(Nc2nc(Nc3ccccc3)n(-c3ccccc3)n2)cc1", "strain or isolate": "H37Rv", "read-out": "MIC", "result": "25 µg/mL"}
{"smiles": "CCCCC(CC)CN1CN(CC(CC)CCCC)CC(C)(NCCNCCc2ccccc2OC)C1", "read-out": "MIC", "result": "12.5 µM"}
{"smiles": "Cc1cc2c(cc1C)[n+]([O-])c(-c1nc3ccccc3s1)c(N)[n+]2[O-]", "strain or isolate": "H37Rv", "method": "BACTEC", "read-out": "MIC bound", "result": "≤12.5 µg/mL"}
{"smiles": "CC(NCCNCCc1ccccc1F)c1cccc2ccccc12", "read-out": "MIC", "result": "25 µM"}
{"smiles": "CC1=NN(c2nc3ccccc3s2)C(=O)C1", "strain or isolate": "H37Rv", "read-out": "MIC", "result": "50 µg/mL"}
{"smiles": "COc1ccc(OC)c(CCNCCNC23CC4CC(CC(C4)C2)C3)c1", "read-out": "MIC", "result": "25 µM"}
{"smiles": "CC(=O)CN(C)C", "strain or isolate": "H37Rv", "read-out": "MIC", "result": ">100 µg/mL"}
{"smiles": "CC1CCC(NCCNc2cccc3ncccc23)CC1", "read-out": "MIC", "result": "3.13 µM"}
{"smiles": "O=C(NC(c1ccccc1)c1ccccc1)c1ccccc1", "strain or isolate": "H37Rv", "method": "BACTEC", "read-out": "inhibition", "dose": "12.5 µg/mL", "result": "0%"}
{"smiles": "COc1ccc(C)cc1N", "strain or isolate": "H37Rv", "read-out": "MIC", "result": ">100 µg/mL"}
{"smiles": "COc1ccc(C(=O)/C=C/c2ccncc2)cc1", "strain or isolate": "H37Rv", "read-out": "EC50", "result": ">12.5 µg/mL"}
{"smiles": "Nc1ccc(S(N)(=O)=O)cn1", "strain or isolate": "H37Rv", "read-out": "MIC", "result": ">100 µg/mL"}
{"smiles": "CCCCCNCCNC[C@]1(C)CCC[C@]2(C)c3ccc(C(C)C)cc3CC[C@@H]12", "read-out": "MIC", "result": "50 µM"}
{"smiles": "C[C@@H]1[C@@H](NCCNC2CCCCCCC2)C[C@H]2C[C@@H]1C2(C)C", "read-out": "MIC", "result": "12.5 µM"}
{"smiles": "CCOC(=O)Nc1cc2nc(C)c(-c3ccccc3)nc2c(N)n1", "strain or isolate": "H37Rv", "read-out": "inhibition", "dose": "12.5 µg/mL", "result": "28%"}
{"smiles": "Nc1ccc2c(c1)[nH]c(=O)c1cc(N)ccc12", "strain or isolate": "H37Rv", "method": "BACTEC", "read-out": "MIC bound", "result": ">12.5 µg/mL"}
{"smiles": "CO[C@H]1/C=C/O[C@@]2(C)Oc3c(C)c(O)c4c(=O)c(c5oc6cc(N7CCN(CC(C)C)CC7)cc(=O)c6nc5c4c3=C2O)NC(=O)/C(C)=C\\C=C\\[C@H](C)[C@H](O)[C@@H](C)[C@@H](O)[C@@H](C)[C@H](OC(C)=O)[C@@H]1C", "strain or isolate": "2847 (rifampin-sensitive)", "read-out": "MIC", "result": "0.025 µg/mL"}
{"smiles": "O=C(CCCC(=O)N/N=C/c1cccc2ccccc12)N/N=C/c1cccc2ccccc12", "strain or isolate": "H37Rv", "method": "BACTEC", "read-out": "MIC", "result": "≥12.5 µg/mL"}
{"smiles": "COC(=O)Nc1cc(NC(O)/C(=C/O)c2ccccc2)c([N+](=O)[O-])c(N)n1", "strain or isolate": "H37Rv", "read-out": "EC50", "result": ">12.5 µg/mL"}
{"smiles": "OC(COc1ccccc1)COc1ccccc1", "strain or isolate": "H37Rv", "read-out": "MIC", "result": "100 µg/mL"}
{"smiles": "COc1ccc(C(=O)/C=C/c2cccnc2)cc1", "read-out": "EC50", "result": ">12.5 µg/mL"}
{"smiles": "OCC(O)CN1CCCc2ccccc21", "strain or isolate": "H37Rv", "read-out": "MIC", "result": ">100 µg/mL"}
{"smiles": "CC(=O)NNc1nc(C)c(C(=O)C=Cc2ccc(N(C)C)cc2)s1", "strain or isolate": "H37Rv", "method": "resazurin", "read-out": "inhibition", "dose": "6.25 µg/mL", "result": "12%"}
{"smiles": "O.O=C(O)C(O)C(=O)O", "strain or isolate": "H37Rv", "read-out": "MIC", "result": ">100 µg/mL"}
{"smiles": "CO[C@H]1/C=C/O[C@@]2(C)Oc3c(C)c(O)c4c(O)c(c5c(c4c3C2=O)NC2(CCN(CC(C)C)CC2)N=5)=NC(=O)/C(C)=C\\C=C\\[C@H](C)[C@H](O)[C@@H](C)[C@@H](O)[C@@H](C)[C@H](OC(C)=O)[C@@H]1C", "strain or isolate": "3125 (rifampin-sensitive)", "read-out": "MBC", "result": "0.025 µg/mL"}
{"smiles": "O=C(O)C1CCCCN1", "strain or isolate": "H37Rv", "read-out": "MIC", "result": ">100 µg/mL"}
{"smiles": "Fc1ccc(CCNCCNCC(c2ccccc2)c2ccccc2)cc1", "read-out": "MIC", "result": "25 µM"}
{"smiles": "CN[C@@H]1[C@H](O[C@H]2[C@H](O[C@H]3[C@H](O)[C@@H](O)[C@H](N=C(N)N)[C@@H](O)[C@@H]3N=C(N)N)O[C@@H](C)[C@]2(O)C=O)O[C@@H](CO)[C@H](O)[C@H]1O", "strain or isolate": "A4B (amikacin-resistant)", "read-out": "MIC", "result": "4 µg/mL"}
{"smiles": "Cc1cc(NC(=O)c2ccc(N)cc2)ccc1N=Nc1ccc2c(O)c(N=Nc3ccc(Cl)c(S(=O)(=O)O)c3)c(S(=O)(=O)O)cc2c1", "strain or isolate": "H37Rv", "method": "BACTEC", "read-out": "inhibition", "dose": "12.5 µg/mL", "result": "18%"}
{"smiles": "O=C1c2ccccc2OC(c2cccc(Cl)c2)C1O", "read-out": "EC50", "result": "<12.5 µg/mL"}
{"smiles": "CC1CN(c2cc3c(cc2F)c(=O)c(C(=O)O)cn3-c2ccc(F)cc2F)CCN1", "strain or isolate": "ATCC 35828", "read-out": "MBC", "result": "2 µg/mL"}
{"smiles": "CCCCc1cc(C(=O)NN)c2ccccc2n1", "strain or isolate": "H37Rv", "method": "BACTEC", "read-out": "inhibition", "dose": "12.5 µg/mL", "result": "-6%"}
{"smiles": "CCCCC(=O)Oc1ccc(C2=Nc3c(cc(NC(=O)OCC)nc3N)N[C@H]2C)cc1", "strain or isolate": "H37Rv", "read-out": "inhibition", "dose": "12.5 µg/mL", "result": "10%"}
{"smiles": "N#CC(C#N)=C1C=Cc2ccccc2O1", "strain or isolate": "H37Rv", "method": "BACTEC", "read-out": "MIC bound", "result": ">12.5 µg/mL"}
{"smiles": "O=S(=O)(Oc1ccc2ccccc2c1)c1ccc(Br)cc1", "strain or isolate": "H37Rv", "read-out": "MIC", "result": ">100 µg/mL"}
{"smiles": "CC(NCCNCc1ccccc1F)C12CC3CC(CC(C3)C1)C2", "read-out": "MIC", "result": "50 µM"}
{"smiles": "O=C1OCCOCCOCCOCCOC(=O)C1c1ccccc1", "strain or isolate": "H37Rv", "method": "BACTEC", "read-out": "inhibition", "dose": "12.5 µg/mL", "result": "7%"}
{"smiles": "CC(=O)OC[C@H]1O[C@@H](Oc2cc(OC(C)=O)c3c(=O)cc(-c4ccc(OC(C)=O)cc4)oc3c2C2C(=O)c3c(OC(C)=O)cc(OC(C)=O)cc3OC2c2ccc(OC(C)=O)cc2)[C@H](OC(C)=O)[C@@H](OC(C)=O)[C@@H]1OC(C)=O", "read-out": "inhibition", "dose": "12.5 µg/mL", "result": "0%"}
{"smiles": "CC[C@@H](CO)NCCN[C@@H](CC)CO", "strain or isolate": "MDR22", "method": "broth dilution / resazurin", "read-out": "MIC", "result": "1 µg/mL"}
{"smiles": "Cc1ccc(NC(=O)C(C)NCC(C)C)cc1Cl.Cl", "strain or isolate": "H37Rv", "method": "BACTEC", "read-out": "inhibition", "dose": "12.5 µg/mL", "result": "2%"}
{"smiles": "Cc1ccc(CNCCNCc2ccc(F)cc2)cc1", "read-out": "MIC", "result": "50 µM"}
{"smiles": "Cl.NC(c1ccccc1)c1ccccc1", "strain or isolate": "H37Rv", "read-out": "MIC", "result": ">100 µg/mL"}
{"smiles": "COc1ccc(/C=C2\\N=C(c3ccc(N)cc3)OC2=O)cc1OC", "strain or isolate": "H37Rv", "method": "BACTEC", "read-out": "MIC bound", "result": ">12.5 µg/mL"}
{"smiles": "CCCN(CCC)C(=O)OCC[N+](CC)(CC)CC.[I-]", "strain or isolate": "H37Rv", "read-out": "MIC", "result": "50 µg/mL"}
{"smiles": "C[C@@H]1CN(c2c(F)c(N)c3c(=O)c(C(=O)O)cn(C4CC4)c3c2F)C[C@H](C)N1", "strain or isolate": "Drug-resistant", "read-out": "MBC90", "result": "0.25 µg/mL"}
{"smiles": "O=C(O)CCC(=O)O", "strain or isolate": "H37Rv", "read-out": "MIC", "result": ">100 µg/mL"}
{"smiles": "CCCCCCCCCCCNCCNCc1cccc(OC)c1OC", "read-out": "MIC", "result": "25 µM"}
{"smiles": "CCOC(=O)Nc1cc(NC(c2ccccc2)c2ccccc2)c2[nH]c(=O)cnc2n1", "strain or isolate": "H37Rv", "read-out": "EC50", "result": "<12.5 µg/mL"}
{"smiles": "CCOC(=O)n1c(=O)nc2c3c(ncn21)Oc1c(c(-c2ccccc2)nn1-c1ccccc1)C3c1ccc(Cl)cc1", "strain or isolate": "H37Rv", "method": "resazurin", "read-out": "MIC", "result": "6.25 µg/mL"}
{"smiles": "COc1ccc(C2CC(=O)c3ccc(F)cc3O2)cc1", "strain or isolate": "H37Rv", "read-out": "EC50", "result": ">12.5 µg/mL"}
{"smiles": "NC(Cc1cc(I)c(O)c(I)c1)C(=O)O", "strain or isolate": "H37Rv", "read-out": "MIC", "result": "100 µg/mL"}
{"smiles": "COc1cc(OC)c2c(=O)cc(-c3ccncc3)oc2c1", "strain or isolate": "H37Rv", "method": "BACTEC", "read-out": "MIC bound", "result": ">12.5 µg/mL"}
{"smiles": "Nc1ccc(S(=O)(=O)c2ccc(N)cc2N)cc1", "strain or isolate": "H37Rv", "read-out": "MIC", "result": ">100 µg/mL"}
{"smiles": "COc1ccc2cc3[n+](cc2c1OC)CCc1cc2c(cc1-3)OCO2", "strain or isolate": "H37Rv", "method": "BACTEC", "read-out": "inhibition", "dose": "12.5 µg/mL", "result": "18%"}
{"smiles": "CCOC(=O)Nc1cc2c(c(N)n1)N=C(c1ccccc1)C(C)(C)S2", "strain or isolate": "H37Rv", "read-out": "EC50", "result": "<12.5 µg/mL"}
{"smiles": "CC1CCC(CC(=O)O)(CC(=O)O)CC1", "strain or isolate": "H37Rv", "read-out": "MIC", "result": ">100 µg/mL"}
{"smiles": "CC(C)=CCC/C(C)=C/CNCCNCC(C)c1ccccc1", "read-out": "MIC", "result": "50 µM"}
{"smiles": "Cc1ccc(C=C(C(=O)O)C(=O)O)o1", "strain or isolate": "H37Rv", "method": "BACTEC", "read-out": "MIC bound", "result": ">12.5 µg/mL"}
{"smiles": "CN(C)c1ccc(O)cc1.O=S(=O)(O)O", "strain or isolate": "H37Rv", "read-out": "MIC", "result": "50 µg/mL"}
{"smiles": "CCOC(=O)Nc1cc2[nH]cnc2c(NC(c2ccccc2)c2ccccc2)n1", "strain or isolate": "H37Rv", "read-out": "EC50", "result": ">12.5 µg/mL"}
{"smiles": "NC1CCN(c2nc3c(cc2F)c(=O)c(C(=O)O)cn3-c2ccc(F)cc2F)C1", "strain or isolate": "H37Rv", "read-out": "MIC", "result": "8 µg/mL"}
{"smiles": "CCOC(=O)c1c(N)c(=O)oc2c3c(c(O)cc12)OCO3", "strain or isolate": "H37Rv", "method": "BACTEC", "read-out": "inhibition", "dose": "12.5 µg/mL", "result": "35%"}
{"smiles": "OCc1ccccc1Sc1ccccc1CNCCNCc1ccc2c(c1)OCO2", "read-out": "MIC", "result": "50 µM"}
{"smiles": "CC(Cc1c[nH]c2ccccc12)NCCNCc1ccco1", "read-out": "MIC", "result": "50 µM"}
{"smiles": "CCC1CC2CC3c4[nH]c5ccc(O)cc5c4CCN(C2)C13.Cl", "strain or isolate": "H37Rv", "method": "BACTEC", "read-out": "MIC bound", "result": ">12.5 µg/mL"}
{"smiles": "NNC(N)=S", "strain or isolate": "H37Rv", "read-out": "MIC", "result": "25 µg/mL"}

A second listing of 4 rows from above:

smiles	strain or isolate	method	read-out	dose	result
N#CC(C#N)=C1C=Cc2ccccc2O1	H37Rv	BACTEC	MIC bound	-	>12.5 µg/mL
COc1ccc(C(=O)/C=C/c2ccncc2)cc1	H37Rv	-	EC50	-	>12.5 µg/mL
O.O=C(O)C(O)C(=O)O	H37Rv	-	MIC	-	>100 µg/mL
CC(NCCNCCc1ccccc1F)c1cccc2ccccc12	-	-	MIC	-	25 µM

MIC bound: limit read from a one-dose screen. Inhibition is in % at the dose shown (toxicity tests: loss of growth or viability). An empty or dashed field is not shown. ECn is the concentration giving n% inhibition of infection, replication or growth. Conditions beyond the fields shown may differ between rows.